{"source": "PubChem BioAssay AID504761, Drosophila RNAi Screening Center – 2011", "assay": "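Insect host genes that dengue virus relies on to spread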 (primary screen)", "cells": "D.Mel-2 cells from Drosophila", "knock-down reagent": "long dsRNA against Drosophila genes", "challenge": "infection with dengue virus type 2; dose and infection time not stated", "read-out": "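Cells stained for dengue envelope protein and imaged; percent of infected cells per well on duplicate plates, ranked by infection, with stained nuclei counted for cell number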", "reading the numbers": "infection score: higher = more virus-infected cells", "rule for the call": "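Very low infection ranking in both replicate wells (chance probability at most 0.065), then a retest showing infection dropped 1.5-fold or more at p below 0.05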", "meaning of the calls": "active = confirmed: knock-down lowers infection; inactive = not picked or not confirmed", "note": "The screen tested about 22,000 reagents; shown is a random part of those that have a named target and a result. Over the whole deposit, 116 (0.52%) were called active. 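Calls depend on retest data that are not deposited; infection was ranked per plate without normalising between plates; the unit of the infection score is not given.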 The numbers tell different reagents against one gene apart. A plus sign joins genes that one reagent is predicted to hit. Further read-outs or replicates are left out here. The record does not give: the amount of reagent, the time to read-out."}
{"Target gene": "CG7785", "reagent no.": 1, "infection score, replicate 1": 3.67, "call": "inactive"}
{"Target gene": "CG13362", "reagent no.": 1, "infection score, replicate 1": 9.56, "call": "inactive"}
{"Target gene": "CG13362", "reagent no.": 2, "infection score, replicate 1": 4.26, "call": "inactive"}
{"Target gene": "CG13995", "reagent no.": 1, "infection score, replicate 1": 2.1, "call": "inactive"}
{"Target gene": "CG13995", "reagent no.": 2, "infection score, replicate 1": 16.9, "call": "inactive"}
{"Target gene": "CG13995", "reagent no.": 3, "infection score, replicate 1": 1.35, "call": "inactive"}
{"Target gene": "CG13995", "reagent no.": 4, "infection score, replicate 1": 15.1, "call": "inactive"}
{"Target gene": "CG30046", "reagent no.": 1, "infection score, replicate 1": 12.5, "call": "inactive"}

The list goes on (3 carried over from the part before).
{"Target gene": "CG13995", "reagent no.": 3, "infection score, replicate 1": 1.35, "call": "inactive"}
{"Target gene": "CG13995", "reagent no.": 4, "infection score, replicate 1": 15.1, "call": "inactive"}
{"Target gene": "CG30046", "reagent no.": 1, "infection score, replicate 1": 12.5, "call": "inactive"}
{"Target gene": "CG33225", "reagent no.": 1, "infection score, replicate 1": 0.16, "call": "inactive"}
{"Target gene": "CG13287", "reagent no.": 1, "infection score, replicate 1": 6.13, "call": "inactive"}
{"Target gene": "CG13287", "reagent no.": 2, "infection score, replicate 1": 8.71, "call": "inactive"}
{"Target gene": "CG13813", "reagent no.": 1, "infection score, replicate 1": 2.43, "call": "inactive"}
{"Target gene": "CG10026", "reagent no.": 1, "infection score, replicate 1": 5.68, "call": "inactive"}
{"Target gene": "Ctl1 (Choline transporter-like 1)", "reagent no.": 1, "infection score, replicate 1": 0.69, "call": "inactive"}
{"Target gene": "Orct2 (Organic cation transporter 2)", "reagent no.": 1, "infection score, replicate 1": 2.91, "call": "inactive"}
{"Target gene": "Orct2 (Organic cation transporter 2)", "reagent no.": 2, "infection score, replicate 1": 9.13, "call": "inactive"}
{"Target gene": "CG1965", "reagent no.": 1, "infection score, replicate 1": 5.87, "call": "inactive"}
{"Target gene": "CG1965", "reagent no.": 2, "infection score, replicate 1": 9.74, "call": "inactive"}
{"Target gene": "Mvb12 (Multivesicular body subunit 12)", "reagent no.": 1, "infection score, replicate 1": 5.13, "call": "inactive"}
{"Target gene": "IFT20 + CG10395", "reagent no.": 1, "infection score, replicate 1": 8.71, "call": "inactive"}
{"Target gene": "IFT20 + CG10395", "reagent no.": 2, "infection score, replicate 1": 4.37, "call": "inactive"}
